Pooled drug test results. Numbers come from NIAID ChemDB, via PubChem.

Shared fields: whole-cell or culture tests; organism: Vaccinia virus; measure: EC50

ECn is the concentration giving n% inhibition of infection, replication or growth. Two numbers with a dash give a range or band. Neighbouring rows are from separate reports. Blank or dashed fields: not listed here.

| compound | strain | cells | value |
|---|---|---|---|
| Cc1cn([C@H]2C[C@H](N=[N+]=[N-])[C@@H](CO)O2)c(=O)[nH]c1=O |  | PRK | 40–100 µg/mL |
| CC1(C)[C@@H](CO)CC[C@@]1(C)Cn1nnc2c(Cl)ncnc21 |  | E6SM | >400 µg/mL |
| NC(=O)CSc1ncnc2c1cnn2CCCCO |  | E6SM | >400 µg/mL |
| Cc1cc(C)nc(NS(=O)(=O)c2ccc(N=C3C(=O)Nc4ccc(Br)cc43)cc2)n1 |  | HFF | >300 µM |
| Cc1nc2ccc(Br)cc2c(=O)n1-c1nnc(-c2cccc(Cl)c2Cl)c(N)n1 |  | E6SM | 3.2 µg/mL |
| CC(Sc1ncnc2c1cnn2COCC(O)CO)C(N)=O |  | E6SM | >400 µg/mL |
| N#CSc1cn([C@@H]2O[C@H](CO)[C@@H](O)[C@@H]2O)c(=O)[nH]c1=O |  | PRK | 40 µg/mL |
| OC[C@H]1O[C@@H](c2cc(C(O)C(I)I)c(F)cc2F)C[C@@H]1O |  | E6SM | >80 µg/mL |
| C=CCc1nc(C)n2c(=O)[nH]cnc12 |  | PRK | >100 µg/mL |
| Nc1ccn([C@@H]2C[C@H](CO)[C@@H](O)[C@H]2O)c(=O)n1 |  | PRK | 15 µg/mL |
| Cc1cc(C)nc(NS(=O)(=O)c2ccc(N=C3C(=O)Nc4ccc(Cl)cc43)cc2)n1 |  | HFF | >300 µM |
| CC(C)O[C@@H]1[C@H](OC(C)C)[C@@H](COS(=O)(=O)NC(=O)O[C@H]2O[C@H](COC(=O)c3ccccc3)[C@@H](OC(=O)c3ccccc3)[C@H](OC(=O)c3ccccc3)[C@@H]2OC(=O)c2ccccc2)O[C@H]1n1ccc(=O)[nH]c1=O |  | VERO | >100 µg/mL |
| Nc1nc2c(ncn2[C@H]2C[C@H](O)[C@@H](CO)O2)c(=O)[nH]1 |  | PRK | 40–100 µg/mL |
| CC1(C)[C@@H](CO)CC[C@@]1(C)Cn1cc(I)c(=O)[nH]c1=O |  | E6SM | >400 µg/mL |
| Cc1cc(C)nc(NS(=O)(=O)c2ccc(N=C3C(=O)Nc4ccc(F)cc43)cc2)n1 |  | HFF | >60 µM |
| CCCn1cnc(=N)c2[nH]cnc21 |  | BSC-1 | >100 µg/mL |
| C=CCc1nc(C)n2c(=O)[nH]c(=S)[nH]c12 |  | PRK | >40 µg/mL |
| CC(C)O[C@@H]1[C@H](OC(C)C)[C@@H](COS(=O)(=O)NC(=O)O[C@@H]2C[C@@H](OC(=O)c3ccccc3)[C@H](OC(=O)c3ccccc3)[C@@H](COC(=O)c3ccccc3)O2)O[C@H]1n1ccc(=O)[nH]c1=O |  | VERO | 75 µg/mL |
| NC(=O)CSc1ncnc2c1cnn2COCC(O)CO |  | E6SM | >400 µg/mL |
| N=c1ncn(Cc2cccc([N+](=O)[O-])c2)c2nc[nH]c12 |  | BSC-1 | >12 µg/mL |
| Nc1nc(-n2c(-c3ccccc3)nc3ccc(Br)cc3c2=O)nnc1-c1cccc(Cl)c1Cl |  | E6SM | >80 µg/mL |
| CC(C)O[C@@H]1[C@H](OC(C)C)[C@@H](COS(=O)(=O)NC(=O)O[C@H]2O[C@H](COCc3ccccc3)[C@H](OCc3ccccc3)[C@H](OCc3ccccc3)[C@H]2OCc2ccccc2)O[C@H]1n1ccc(=O)[nH]c1=O |  | VERO | 150 µg/mL |
| O=c1[nH]c(=O)n([C@H]2C[C@H](O)[C@@H](CO)O2)cc1F |  | PRK | 0.07 µg/mL |
| N[C@@H]1[C@H](O)[C@@H](CO)O[C@H]1n1ccc(=O)[nH]c1=O |  | PRK | 150 µg/mL |
| Nc1ccn([C@@H]2C=C(CO)[C@@H](O)[C@H]2O)c(=O)n1 | VAC | VERO | 0.04 µg/mL |
| CC(=O)OC[C@H]1O[C@@H](n2cc(SC#N)c(=O)[nH]c2=O)[C@H](OC(C)=O)[C@@H]1OC(C)=O |  | PRK | 100 µg/mL |
| CCn1cnc(=N)c2[nH]cnc21 |  | BSC-1 | >100 µg/mL |
| CC(C)O[C@@H]1[C@H](OC(C)C)[C@@H](COS(=O)(=O)NC(=O)O[C@H]2O[C@H](COC(=O)c3ccccc3)[C@@H](OC(=O)c3ccccc3)[C@H](OC(=O)c3ccccc3)[C@H]2OC(=O)c2ccccc2)O[C@H]1n1ccc(=O)[nH]c1=O |  | VERO | 20 µg/mL |
| Nc1nc(=O)n([C@@H]2C=C(CO)[C@@H](O)[C@H]2O)cc1F | VAC | VERO | 1.46 µg/mL |
| CCCCn1cnc(=N)c2[nH]cnc21 |  | BSC-1 | >100 µg/mL |
| Nc1ncnc2c1ncn2C[C@H](O)CO |  | PRK | 50 µg/mL |
| COc1cc(Cc2cnc(-n3c(-c4ccccc4)nc4ccc(Br)cc4c3=O)nc2N)cc(OC)c1OC |  | E6SM | 80 µg/mL |
| [N-]=[N+]=N[C@H]1[C@H](O)[C@H](n2cnc3c(N)ncnc32)O[C@@H]1CO |  | PRK | 20 µg/mL |
| C=CCc1nc(C)n2c(=O)[nH]c(NC(C)=O)nc12 |  | PRK | >200 µg/mL |
| CC1(C)[C@@H](CO)CC[C@@]1(C)Cn1cnc2c(N)ncnc21 |  | E6SM | >400 µg/mL |
| COC(CI)c1cc([C@H]2C[C@H](O)[C@@H](CO)O2)c(F)cc1F |  | E6SM | >80 µg/mL |
| Nc1nc2c(ncn2COCCO)c(=O)[nH]1 |  | PRK | 70 µg/mL |
| CC(C)O[C@@H]1[C@H](OC(C)C)[C@@H](COS(=O)(=O)NC(=O)O[C@H]2C[C@@H](OC(=O)c3ccccc3)[C@H](OC(=O)c3ccccc3)[C@@H](COC(=O)c3ccccc3)O2)O[C@H]1n1ccc(=O)[nH]c1=O |  | VERO | 50 µg/mL |

A second listing of 2 rows from above:

| compound | strain | cells | value |
|---|---|---|---|
| Cc1nc2ccc(Br)cc2c(=O)n1-c1nnc(-c2cccc(Cl)c2Cl)c(N)n1 |  | E6SM | 3.2 µg/mL |
| Nc1nc(=O)n([C@@H]2C=C(CO)[C@@H](O)[C@H]2O)cc1F | VAC | VERO | 1.46 µg/mL |